Laboratory results taken from publication PMC4917206, “Chemical Modification of Influenza CD8+ T-Cell Epitopes Enhances Their Immunogenicity Regardless of Immunodominance” (PLoS ONE, 2016).

Legend:
[1] = tested on: splenocytes of WT-vaccinated HLA-A2 tg mice; assay type: cell-based, mouse; set-up: key to response compared with WT peptide control, mouse splenocytes: *: Lower response than WT peptide
[2] = target: T1, HLA-A*0201 (Homo sapiens, UniProt P04439, D140Y/D185E/D98H/E176V/E277Q/G131W/G231S/I119V/I121R/I166T/I218V/L300P/L318F/N151K/N90K/P208A/P217A/Q86G/Q94H/R138H/R169H/T345S); assay type: binding
T1 construct: Soluble MHC was dissolved in PBS containing 0.5 mg/ml bovine γ-globulin; made in house

[3] = tested on: […]-specific T cell clone; assay type: cell-based

Substance | rank by T cell activation, mouse splenocytes [1] | response compared with WT peptide control, mouse splenocytes [1] | FP binding score, percentage inhibition of tracer peptide binding, 4h [2] [%] | FP binding score, percentage inhibition of tracer peptide binding, 24h [2] [%] | T cell clone: percentage of IFN-γ producing T cells, Average [3] [%]
GILGFVFT[2-AOC] [G22] | Upper 3 | G22 ^* | 79 | 77 | 23.3
[3-PYRA]ILGFVFTL [G8] | – | – | 94 | 93 | –
[3-pyra]ILGFVFTL [G4] | – | – | 92 | 92 | –
[4-PYRA]ILGFVFTL [G15] | – | – | 93 | 93 | –
[4-pyra]ILGFVFTL [G10] | – | – | 90 | 91 | –
[am-phg]ILGFVFTL [G1] | – | – | 97 | 98 | –
fILGFVFTL [G24] | – | – | 86 | 81 | –
yILGFVFTL [G9] | – | – | 94 | 90 | –
